How the values were obtained:
Vero cell cultures = details: African green monkey
HEL cell cultures = details: human
HeLa cell cultures = details: human

Measured: Minimum cytotoxic concentration

NC(=O)c1ncn([C@@H]2O[C@H](CO)[C@@H](O)[C@H]2O)n1 [Ribavirin]
>400 µg/mL: all assays above

From patent US20080076824A1, “Compounds That Inhibit Replication Of Human Immunodeficiency Virus” (priority 2004, published 2008)
